The target in this assay is Recombinant SARS-CoV-2 3CL Protease (Severe acute respiratory syndrome coronavirus 2 (2019-nCoV) (SARS-CoV-2), UniProt P0DTD1). The assay is described as follows: Inhibitory activity test against SARS-CoV-2 3CL proteases. As to conditions: 50% SARS-CoV-2 3CL protease inhibitory concentration. The class given is biochemical.

As to `Cc1cncc(-n2c(=O)c(-c3ccc(F)c(Cl)c3)c(N3CCC(C(F)F)CC3)n(CC#N)c2=O)n1` [Compound I-194], the IC50 is less than 0.01 µM.

Values taken from US20250092056A1, “URACIL DERIVATIVES HAVING VIRUS REPLICATION INHIBITORY ACTIVITY AND PHARMACEUTICAL COMPOSITION COMPRISING THE SAME” (Shionogi & Co., Ltd., priority 2022, published 2025).
